{"source": "paper PMC12439581", "about": "(mAbs, 2025)", "binders": {"B1": {"name": "C05 scFv with T31D (CDR-L1) (scFv, V domains shown)", "VH": "QVQLVQSGAEVKKPGSSVKVSCKASGGTFSSYAISWVRQAPGQGLEWMGGIIPIFGTANYAQKFQGRVTITADESTSTAYMELRSLRSDDTAVYYCARDNLGYCSGGSCYSDYYYYYMDVWGQGTLVTVSS", "VL": "NFMLTQPHSVSESPGKTVTISCTRSSGSIASDYVHWYQQRPGSAPTTVIYEDNQRPSGVPDRFSGSIDSSSNSASLTISGLKTEDEADYYCQSYDSSNGSVVFGGGTKLTVL", "notes": "source: E. coli BL21(DE3), in culture supernatant"}, "B2": {"name": "D11-Y32A-Y49H scFv (scFv, V domains shown)", "VH": "B1 VH", "VL": "B1 VL with H8R, A30G, Y33A, A44S, Y50H, S96R, G99H, S100E"}}, "key": {"[1]": {"molecular_target": "biotinylated α-bungarotoxin from Bungarus multicinctus (Bungarus multicinctus, UniProt P60615, biotin (NHS-PEG4-biotin, amine coupling; sites not stated))", "assay": "DELFIA (dissociation-enhanced lanthanide fluorescence immunoassay)"}, "[2]": {"molecular_target": "α-cobratoxin from Naja kaouthia (Naja kaouthia, UniProt P01391)", "conditions": "both partners purified"}}, "note": "Residue numbers refer to the chain shown, from its start. Names and notes keep the numbering of the source.", "data": [{"binder": "B1", "values": [{"measurement": "binding result", "setting": "[1]", "result": "binds"}]}, {"binder": "B2", "values": [{"measurement": "binding result", "setting": "[2]", "result": "binds"}]}]}
